Anti-infective test results gathered from many reports (values: NIAID ChemDB through PubChem).

Common to all: tests in culture; organism: Aspergillus flavus; measure: MIC

Rows are shuffled and stem from different studies.

SMILES | strain or isolate | value
C=C1CO[C@H]2[C@@H](C)OC(OC[C@@]34C[C@H]5[C@H](C)CC[C@@H]5[C@@]5(C=O)C[C@@H]3C=C(C(C)C)[C@@]45C(=O)O)C[C@@H]12 | - | 4–16 µg/mL
CCOC(=O)C1/C(=N/Nc2ccc([N+](=O)[O-])cc2[N+](=O)[O-])C=C(c2ccc3ccccc3c2)CC1c1ccccc1 | Clinical isolates | 200 µg/mL
Cc1cc(=O)oc2c(C=Nc3cccc4cccc(N=Cc5c(O)ccc6c(C)cc(=O)oc56)c34)c(O)ccc12 | MTCC 1883 | 10 µg/mL
C[C@H]1[C@H](O)[C@@H](C)/C=C/C=C/C=C/C=C/C=C/C=C/C=C/[C@H](O[C@@H]2O[C@H](C)[C@@H](O)[C@H](N)[C@@H]2O)C[C@@H]2O[C@](O)(C[C@@H](O)C[C@@H](O)CC[C@H](O)[C@@H](O)C[C@@H](O)CC(=O)O[C@H]1C)C[C@H](O)[C@H]2C(=O)O | IAM 13835 | 0.39 µg/mL
C[C@H]1[C@H](O)[C@@H](C)/C=C/C=C/C=C/C=C/C=C/C=C/C=C/[C@H](O[C@@H]2O[C@H](C)[C@@H](O)[C@H](N)[C@@H]2O)C[C@@H]2O[C@](O)(C[C@@H](O)C[C@@H](O)CC[C@H](O)[C@@H](O)C[C@@H](O)CC(=O)O[C@H]1C)C[C@H](O)[C@H]2C(=O)O | ATCC 28542 | >100 µg/mL
Cc1ccc(C2=NN(Cc3n[nH]c(=S)n3-c3ccc(Cl)cc3)C(=O)CC2)cc1 | - | 7 µg/mL
Cn1c(=O)c(-c2[nH][nH]c(=O)c2/C=N/c2ccccn2)c(O)c2ccccc21 | ATCC 28542 | 50 µg/mL
Cc1ccc(CC(=O)Nc2nc(C)cs2)cc1 | NCIM 902 | 12.5 µg/mL
Cn1c(=O)c(-c2[nH][nH]c(=O)c2N=Nc2ccc(N)cc2)c(O)c2ccccc21 | ATCC 28542 | 50 µg/mL
Cc1ccc(CC(=O)Nc2nc(-c3cccc(Cl)c3)cs2)cc1 | NCIM 524 | 6.25 µg/mL
O=C1CCC(c2ccc(Br)cc2)=NN1Cc1n[nH]c(=S)n1-c1ccc(Cl)cc1 | - | 8 µg/mL
Cn1c(=O)c(-c2[nH][nH]c(=O)c2N=Nc2ccc(Br)cc2)c(O)c2ccccc21 | ATCC 28542 | >100 µg/mL
OC(Cn1cncn1)(Cn1cncn1)c1ccc(F)cc1F | KCCM 11899 | 0.8 µg/mL
Cn1c(=O)c(-c2[nH][nH]c(=O)c2C=Nc2ccncc2)c(O)c2ccccc21 | ATCC 28542 | 25 µg/mL
CCOC(=O)C1/C(=N/Nc2ccc([N+](=O)[O-])cc2[N+](=O)[O-])C=C(c2ccc3ccccc3c2)CC1c1cccc(Cl)c1 | Clinical isolates | 6.25 µg/mL
Cc1ccc(C2=NN(Cc3n[nH]c(=S)n3-c3ccccc3)C(=O)CC2)cc1 | - | 7 µg/mL
CCOC(=O)C1/C(=N/Nc2ccc([N+](=O)[O-])cc2[N+](=O)[O-])C=C(c2ccc3ccccc3c2)CC1c1ccc(C)cc1 | Clinical isolates | 25 µg/mL
Cc1cc(=O)oc2cc(OCC(O)Cn3cncn3)cc(OCC(O)Cn3cncn3)c12 | - | 32 µg/mL
Cc1ccc(-c2c(CN)c(=O)n3[nH]c(-c4ccc(Br)cc4)nc3c2CN)o1 | - | 100 µg/mL
Cc1cccc(CC(=O)Nc2nc(-c3cccc(F)c3)cs2)c1 | NCIM 524 | 12.5 µg/mL
O=C1CCC(c2ccc(Oc3ccccc3)cc2)=NN1Cc1n[nH]c(=S)n1-c1ccc(Br)cc1 | - | 16 µg/mL
Cc1cccc(CC(=O)Nc2nc(C)cs2)c1 | NCIM 524 | 12.5 µg/mL
CCOC(=O)C1/C(=N/Nc2ccc([N+](=O)[O-])cc2[N+](=O)[O-])C=C(c2ccc3ccccc3c2)CC1c1ccc(OC)cc1 | Clinical isolates | 25 µg/mL
Cc1ccc(OCC(=O)Nc2nc(-c3cccc(F)c3)cs2)cc1C | NCIM 524 | 100 µg/mL
Cc1cc(=O)n(-c2ccc(N=Nc3c(-c4c(O)c5ccccc5n(C)c4=O)[nH][nH]c3=O)cc2)n1C | ATCC 28542 | >100 µg/mL
Cc1ccc(-c2c(CN)c(=O)n3[nH]c(-c4c(O)c(O)c(O)c(O)c4CO)nc3c2CN)o1 | - | 100 µg/mL
Cc1cc(=O)oc2cc(OCC(O)Cn3nnc4ccccc43)cc(OCC(O)Cn3nnc4ccccc43)c12 | - | 256 µg/mL

Two numbers with a dash give a range or band. An empty or dashed field is not shown.